The source of these data is the supplement of paper PMC9931576.

Experiment in all cases: pseudovirus neutralization IC50; higher = weaker neutralization
In assay [1] the target is SARS-CoV-2 Omicron BA.1 spike pseudovirus. Here is the method:
(§1)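 Single-round VSV luciferase pseudovirus mixed with antibody dilutions for 1 h and put on Huh-7 cells for about a day; IC50 from the dose curve.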

Assay [2] has as its target SARS-CoV-2 Omicron BA.2 spike pseudovirus. The method, then:
as §1

Assay [3] has as its target SARS-CoV-2 Omicron BA.2.75 spike pseudovirus. The method, then:
as §1

For assay [4], the target named is SARS-CoV-2 Omicron BA.5 spike pseudovirus. Here is the method: as §1
The target of assay [5] is SARS-CoV-2 Omicron BQ.1.1 spike pseudovirus. The method, then: as §1
Assay [6] has as its target SARS-CoV-2 Omicron XBB spike pseudovirus. The method, then:
as §1

Assay [7] concerns the target SARS-CoV-2 early D614G spike pseudovirus. Here is the method:
as §1

Human monoclonal antibodies against the spike receptor-binding domain (heavy:light variable regions). IC50 against pseudoviruses bearing the spike of naturally observed variants; lower = stronger; >10 µg/ml means not reached at the top dose. No active / inactive call. The stated detection limit is 0.0005 µg/ml; values near or below 0.001 µg/ml lie at the floor of the assay. Where only a bound is given, the exact number is not on record here.

B1: BD55-5320 (protein)
chain 1: VQLVESGGGFVQPGGSLRLSCAASGFTISDFEMNWVRQAPGRELEWVSYISRSGTTIHYADSVRGRFTISRDSAENSLFLQMNSLSAEDTAVYYCARETDPCGGDCDPGAKYYYYYGMDVWGLGTTVIVSS
chain 2: DIQMTQSPSSVSASVGDRVTITCRASQDIRKWLAWYQQKPGKAPKLLIFDASSLQSGVPSRFSGSGSGTHFTLTISNLQPEDFATYYCQQAHSFPPRSFGQGTKLEI
Turning to B1, the “pseudovirus neutralization IC50” value in assay [1] is 4.74 µg/mL; in assay [2], 3.45 µg/mL; in assay [3], 4.33 µg/mL; in assay [4] it was more than 10 µg/mL; in assay [5] it was more than 10 µg/mL; in assay [6] it was more than 10 µg/mL. For the same molecule, the “pseudovirus neutralization IC50” value in assay [7] came out at 0.858 µg/mL.

B2: BD55-5311 (protein)
chain 1: EVQLVQSGGGLVQPGGSLRLSCAASGFIFNTYAMHWVRQSPGKGLEFVSSITNNGGGTFYADSVKGRFTVSRDNSKNTLYLQVGSLRAEDLAVYYCARESRVVMDTTLDYWGQGTLVIVSS
chain 2: DIQMTQSPSSLSASVGDRVTITCRASQSIARFLNWYQLRPGKAPKLLIYGASNLQGGVPSRFSGSGSGTEFTLTISGLQPEDFATYYCQQSYISPQYTFGQGTKLEIK
Regarding B2, the “pseudovirus neutralization IC50” value in assay [1], in assay [2], in assay [3], in assay [4], in assay [5] and in assay [6] was more than 10 µg/mL in each case. Besides, in assay [7], the “pseudovirus neutralization IC50” value is more than 10 µg/mL.

B3: BD55-5271 (protein)
chain 1: QVTLKESGPVLVKPTETLTLTCTVSGISLNNARMAVSWIRQPPGKALEWLAHILSNDEKSFSKSLTSRLTISKDSSKNQVVLRLTNMDPVDTGTYYCARIVYDSSSYYYSGDNWFDPWGQGTQVTVSS
chain 2: SYELTQPPSVSVSPGQTARITCTGDAFPNQYAYWYQQKSGQAPVLVIYKDSERPSGIPERFSGSSAGTTVTLTISGVQAEDEADYYCQSADSRGVVFGGGTKVTVL
As to B3, the “pseudovirus neutralization IC50” value in assay [1], in assay [2], in assay [3], in assay [4], in assay [5] and in assay [6] was more than 10 µg/mL in each case. For the same molecule, the “pseudovirus neutralization IC50” value in assay [7] was determined as 0.977 µg/mL.

B4: BD55-5284 (protein)
chain 1: EVQLVESGGGLVQPGGSLRLSCGASGFTLSNYAMHWVRQAPGKGLEYVASITSNGVGAFYADSVKGRFTISRDNSKNTLYLQMGGLREEDMAVYYCAREGIAAFYLYFDLWGRGTLVTVSS
chain 2: DIQMTQSPYSLSASVGDRITITCRASQSIGSYLNWYQQKVGKAPKLLVYGASNLQSGVPSRFSGSGSGTDFTLTISSLQSEDFATYFCQQSYITPQYTFGQGSKVEMK
In the case of B4, the “pseudovirus neutralization IC50” value in assay [1], in assay [2], in assay [3], in assay [4], in assay [5] and in assay [6] was more than 10 µg/mL throughout. For the same molecule, the “pseudovirus neutralization IC50” value in assay [7] came out at 2.09 µg/mL.

B5: BD55-5267 (protein)
chain 1: QVQLQESGPGLVKPSGTLSLTCAVSGGSISSSNWWSWVRQPPGKGLEWIGEIYHSGSTNYNPSLKSRVTISVDKSKNKFSLKLSSVTAADTAVYFCARAGWIESGYDAFVGYFDYWGQGTLVTVSS
chain 2: DIQMTQSPSSLSASVGDRVTITCRASQGISSSLAWYQQKPGKAPDLLLYAASGLESGVPSRFSGSGSGTDFTLSISSLQPEDFATYYCQQYYSPPRTFGQGTKLEIK
B5: the “pseudovirus neutralization IC50” value in assay [1], in assay [2], in assay [3], in assay [4], in assay [5] and in assay [6] was more than 10 µg/mL in each case. Further, the “pseudovirus neutralization IC50” value in assay [7] is 0.122 µg/mL.

B6: BD55-5327 (protein)
chain 1: QERLVQSGAEVKKPGSSVKVSCQASGGTLSNRVINWVRQAPGQGPEYMGGIVPVFGPPNYAQKFQGRVTITADTSTNTVYMELKSLRSDDTAVYYCARDAASPTYSGYDWLSPGWLDPWGQGTLVTVSS
chain 2: DIVMTQSPDSLAVSLGERATINCKSSQSVLYSSNNKNHLAWYQQKPGLPPRLLIYWASTRESGVPDRFGGSGSGTDFTLTITSLQAEDAAVYYCQQYYSPPLTFGGGTKVEIK
Regarding B6, the “pseudovirus neutralization IC50” value is 0.797 µg/mL in assay [1]; more than 10 µg/mL in assay [2]; more than 10 µg/mL in assay [3]; more than 10 µg/mL in assay [4]; more than 10 µg/mL in assay [5]; more than 10 µg/mL in assay [6]. The “pseudovirus neutralization IC50” value in assay [7] came to 0.0196 µg/mL.

B7: BD55-5323 (protein)
chain 1: EVHLVESGGGLVKPGGSLRLSCAASGFTFSSYTMNWVRQAPGKGLEWVSSVSGSTTFIFYADSVKGRFTISRDNAKNSLFLQMNSLRVEDTAVYYCARNYDILTPYSDAEYFHHWGQGTLVTVSS
chain 2: EIVLTQSPATLSLSPGERATLSCRASQSVSSNLAWYQQKPGQAPRLLIYDASNRATGIPGRFSGSGSGTDFTLTISSLEPEDFAVYYCQQRSNWPPYTFGQGTKLEIK
Turning to B7, the “pseudovirus neutralization IC50” value in assay [1], in assay [2], in assay [3], in assay [4], in assay [5] and in assay [6] was more than 10 µg/mL throughout. Besides, the “pseudovirus neutralization IC50” value in assay [7] is 1.76 µg/mL.

B8: BD55-5343 (protein)
chain 1: QITLKESGPTLVKPTQTLTLTCTFSSFSLSRNGVGVGWIRQAPGKALEWLAVIYWDDDKYYSPSLKSRLTITKDTSKNQVVLTMTNMDPVDTGTYYCAYSPIYYDSTGYETLFAFDIWGQGTRVTVSS
chain 2: EIVMTQSPDTLSVSPGERATLSCRASQSASSNLAWYQQKPGQAPRLLIYGASTRATGIPARFSGSGSGTEFTLTISSLQSEDFAVYYCQQYDNWAWTFGQGTKVEIK
With B8, the “pseudovirus neutralization IC50” value in assay [1], in assay [2], in assay [3], in assay [4], in assay [5] and in assay [6] was more than 10 µg/mL throughout. Further, the “pseudovirus neutralization IC50” value in assay [7] is 0.00781 µg/mL.

B9: BD55-1039 (protein)
chain 1: QVQLQESGPGLVKPSQTLSLTCSVSGGSITSGGYYWSWIRQHPGKGLEWIGYVFYSGSTYYNPSLRSRLIISVDTSKNQFSLRLSSVTAADTAVYYCARDSDHYDSAGLTWAPGPFDIWGQGKLVTVSS
chain 2: DIRMTQSPPSLSASVGDRITITCQASQDINNYLNWYQQKPGKAPKLLIYDASNLDTGVPSSFSGSGSGTHFSLTISSLQPEDFATYYCQQYDNLPLTFGGGTKVEVK
On to B9, for which the “pseudovirus neutralization IC50” value in assay [1] is 1.69 µg/mL; in assay [2], 0.244 µg/mL; in assay [3] it was 0.699 µg/mL; in assay [4] it was more than 10 µg/mL; in assay [5], more than 10 µg/mL; in assay [6] it was more than 10 µg/mL. In addition, the “pseudovirus neutralization IC50” value in assay [7] was found to be 0.134 µg/mL.

B10: BD55-1036 (protein)
chain 1: QITLKESGPTLVKPTQTLTLTCTFSGFSLTTPGVGMGWIRQPPSQALELLALIYWDGDKRYSPSLKNRVTITRDTSKNQLVLTVTNVDPVDTATYYCAHTSNTPTTPAGLYFNTWGQGTRVTVSS
chain 2: QSALTQPASVSGSPGQSITISCSATNSDFGGHNIVSWYQQHPGKAPKLMIYDVTNRPSGVSNRFSGSKSGNTASLTISGLQAEDEADYYCSSYTDFVIFGGGTKLTVL
Consider B10, for which the “pseudovirus neutralization IC50” value in assay [1] was 0.0881 µg/mL; in assay [2], 0.00361 µg/mL; in assay [3], 0.0592 µg/mL; in assay [4] it was 0.00541 µg/mL; in assay [5], more than 10 µg/mL; in assay [6], more than 10 µg/mL. In addition, the “pseudovirus neutralization IC50” value in assay [7] came out at 0.001 µg/mL.

B11: BD55-5354 (protein)
chain 1: QGQLVQSGGEVKKPGASVKVSCKASGFILISYGMSWVRQAPGQGLEWMGWISAYSGQTNYAQKFQGRVILTTDTSTSTAHMELRSLTPDDTAVYYCVRDRRHLEWPMPPLGVWGQGTTVIVSS
chain 2: DIQMTQSPPSLSASVGDRVTVTCQASQDISRNLCWFQQKVGKAPRLLIYDASTLETGVPSRFSGSGSGTDFTLTISSLQPEDFATYYCQQYHNPPPYTFGQGTRLEIK
As for B11, the “pseudovirus neutralization IC50” value in assay [1], in assay [2], in assay [3], in assay [4], in assay [5] and in assay [6] was more than 10 µg/mL in each case. Further, the “pseudovirus neutralization IC50” value in assay [7] was found to be 1.22 µg/mL.

B12: BD55-5346 (protein)
chain 1: EVQLVESGGGLVRPGGSLRLSCAASGFIFSDYSLNWVRQAPGKGLEWVASISGGGGLFFYADSVKGRFTISRDNAKNSLFLQMDSLRVEDTALYFCATESRATRTPDLDYWGQGTLVTVSS
chain 2: DIQMTQSPPSLSASVGDRVTIICRASQTISKYLNWYQHKPGKAPKLLIYAASTLQSGVPSRFSGSGSGTDFTLTISSLQPEDFATYYCQQSYSSPPITFGQGTRLDIK
Turning to B12, the “pseudovirus neutralization IC50” value in assay [1], in assay [2], in assay [3], in assay [4], in assay [5] and in assay [6] was more than 10 µg/mL throughout. The “pseudovirus neutralization IC50” value in assay [7] is more than 10 µg/mL.
